Taken from: PubChem BioAssay AID1259414 (Drosophila RNAi Screening Center, 2018)

- Test: 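Genome-wide screen for host control of endosymbiont load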 (primary screen)
- System: Drosophila JW18 cells infected with Wolbachia
- Reagents: long dsRNA against Drosophila genes, 0.25 µg dsRNA per well of a 384-well plate
- Timing: 5 days
- Treatment: cells persistently infected with Wolbachia before knock-down; no added drug
- Measured: 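Imaged fluorescence in situ signal for Wolbachia 23S rRNA per DAPI-counted host cell, given as a robust z-score within each plate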
- Reading the numbers: Wolbachia per cell robust z: higher = more Wolbachia per host cell than the plate typical
- Hit rule: 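Active if absolute robust z reaches 1.5 in two or more of three replicates, leaving out multi- or no-target dsRNAs, genes unexpressed in JW18 and A1 wells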
The deposit covers about 24,000 reagents; below is a random part of those that have a named target and a result. Over the whole deposit, about 1,210 (5%) are marked active. 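Inactive calls also include excluded dsRNAs with several or no targets, genes unexpressed in JW18, and well A1, regardless of score.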 The numbers tell different reagents against one gene apart. Names joined by + are all predicted targets of the reagent.

no.	Gene	reagent	Wolbachia per cell robust z, rep 1	Wolbachia per cell robust z, rep 2	Wolbachia per cell robust z, rep 3	call
1	unc-119 (GeneID 31664)	1	0.0325	0.337	0.19	inactive
2	unc-119 (GeneID 31664)	2	-3.24	0.181	-0.626	inactive
3	Mfap1 (GeneID 38256)	1	0.707	0.752	2.1	inactive
4	Mfap1 (GeneID 38256)	2	0.554	0.359	-0.625	inactive
5	betaNACtes2 (GeneID 32386)	1	-0.36	-1.05	-1.46	inactive
6	betaNACtes2 (GeneID 32386)	2	-0.506	0.257	-0.879	inactive
7	Trs31 (GeneID 36641)	1	-3.03	-0.484	-1.75	active
8	ND-B14.7 (GeneID 37385)	1	-0.343	0.691	-0.519	inactive
9	Cyp12c1 (GeneID 40037)	1	-2.17	0.0197	0.0301	inactive
10	Cyp12c1 (GeneID 40037)	2	1.12	-0.425	-0.283	inactive
11	swaPsi (GeneID 3771807)	1	-1.36	-1.16	-0.162	inactive
12	Lsp2 (GeneID 45326)	1	0.637	-0.321	-0.452	inactive
13	Lsp2 (GeneID 45326)	2	0.926	0.619	0.574	inactive
14	Lsp2 (GeneID 45326)	3	-0.288	-1.34	-0.709	inactive
15	CG30268 (GeneID 37610)	1	-0.738	-0.808	-0.263	inactive
16	dati (GeneID 43789)	1	-0.0387	1.68	-1.54	inactive
17	dati (GeneID 43789)	2	0.422	0.853	0.537	inactive
18	dati (GeneID 43789)	3	0.87	-4.74	0.0914	inactive
19	dati (GeneID 43789)	4	0.131	-1.44	-0.619	inactive
20	CG33673 (GeneID 3772423)	1	-0.617	-1.54	-0.641	inactive
21	CG11180 (GeneID 37330)	1	0.923	1.17	-1.2	inactive
22	CG11180 (GeneID 37330)	2	1.28	0.284	0.891	inactive
23	CG14857 (GeneID 41791)	1	-0.57	-0.423	-1.79	inactive
24	CG31207 (GeneID 326125)	1	-1.26	-1.43	-0.703	inactive
25	CG11594 (GeneID 38473)	1	0.159	-0.121	-0.588	inactive
26	His4r (GeneID 41773)	1	5.05	8.27	6.55	active
27	His4r (GeneID 41773)	2	0.485	0.145	0.17	inactive
28	Ubc87F (GeneID 41682)	1	0.452	-0.0726	0.579	inactive
29	Ubc87F (GeneID 41682)	2	0.161	-0.33	-0.541	inactive
30	CG6066 (GeneID 43267)	1	-4.61	0.448	-3.65	active
31	CG6066 (GeneID 43267)	2	0.589	0.379	0.485	inactive
32	CG6066 (GeneID 43267)	3	0.401	-0.952	0.578	inactive
33	CG6066 (GeneID 43267)	4	-1.8	0.447	0.517	inactive

Reprinted from the entries so far for reference:
no.	Gene	reagent	Wolbachia per cell robust z, rep 1	Wolbachia per cell robust z, rep 2	Wolbachia per cell robust z, rep 3	call
14	Lsp2 (GeneID 45326)	3	-0.288	-1.34	-0.709	inactive
15	CG30268 (GeneID 37610)	1	-0.738	-0.808	-0.263	inactive
16	dati (GeneID 43789)	1	-0.0387	1.68	-1.54	inactive
17	dati (GeneID 43789)	2	0.422	0.853	0.537	inactive
18	dati (GeneID 43789)	3	0.87	-4.74	0.0914	inactive
19	dati (GeneID 43789)	4	0.131	-1.44	-0.619	inactive
20	CG33673 (GeneID 3772423)	1	-0.617	-1.54	-0.641	inactive
21	CG11180 (GeneID 37330)	1	0.923	1.17	-1.2	inactive
22	CG11180 (GeneID 37330)	2	1.28	0.284	0.891	inactive
23	CG14857 (GeneID 41791)	1	-0.57	-0.423	-1.79	inactive

The listing continues.
no.	Gene	reagent	Wolbachia per cell robust z, rep 1	Wolbachia per cell robust z, rep 2	Wolbachia per cell robust z, rep 3	call
34	CG34204 (GeneID 5740630)	1	0.482	0.46	0.178	inactive
35	CG13442 (GeneID 37349)	1	0.208	0.661	0.777	inactive
36	CG13442 (GeneID 37349)	2	-1.33	-1.77	-1.5	inactive
37	CalpC (GeneID 32597)	1	0.52	-2.41	-1.07	inactive
38	bsf (GeneID 35100)	1	0.729	-0.0679	0.806	inactive
39	RpL37-2 (GeneID 37669)	1	0.144	-5.74	-2.49	inactive
40	Naa30A (GeneID 31079)	1	-1.53	0.391	0.589	inactive
41	Naa30A (GeneID 31079)	2	0.547	0.354	0.416	inactive
42	PH4alphaNE2 (GeneID 43628)	1	-1.36	0.423	-0.0866	inactive
43	PH4alphaNE2 (GeneID 43628)	2	1.31	0.27	0.584	inactive
44	E2f2 (GeneID 35381)	1	-0.906	0.509	0.554	inactive
45	CG13331 (GeneID 36503)	1	-2.11	-0.605	0.194	inactive
46	Burs (GeneID 42560)	1	0.761	0.188	1.01	inactive
47	CG4269 (GeneID 37578)	1	0.229	-0.687	0.84	inactive
48	TfIIA-S-2 (GeneID 31048)	1	-0.199	-0.58	-1.31	inactive
49	CG32201 (GeneID 317911)	1	-0.946	-0.124	0.671	inactive
50	fus (GeneID 44095)	1	-1.55	-2.91	-0.308	active
51	fus (GeneID 44095)	2	0.714	1.2	-0.478	inactive
52	Obp49a (GeneID 36399)	1	0.545	0.717	1.32	inactive
53	Obp49a (GeneID 36399)	2	1.01	0.00589	-0.593	inactive
54	CR12628 + Mgstl	1	0.754	0.349	-0.0112	inactive
55	Cpr97Ea (GeneID 43258)	1	0.89	0.254	1.37	inactive
56	Cpr97Ea (GeneID 43258)	2	0.0448	-9.66	-1.23	inactive
57	Pglym87 (GeneID 46246)	1	-6.62	-6.89	-0.859	inactive
58	Pglym87 (GeneID 46246)	2	2.3	0.365	0.694	inactive
59	lncRNA:bxd (GeneID 3772220)	1	-1.2	-0.638	-0.0929	inactive
60	lncRNA:bxd (GeneID 3772220)	2	-0.887	-1.07	-1.46	inactive
61	lncRNA:bxd (GeneID 3772220)	3	-0.871	0.0741	-0.818	inactive
62	CG3513 (GeneID 33590)	1	-5.44	0.699	-1.57	inactive
63	CG42238 (GeneID 7354398)	1	-0.32	-0.0373	0.882	inactive
64	ERp60 (GeneID 36270)	1	1.03	0.286	0.555	inactive
65	ERp60 (GeneID 36270)	2	0.778	1.22	-0.92	inactive
66	Targ2 (GeneID 326246)	1	-0.287	-0.28	0.395	inactive
67	CG12746 (GeneID 40672)	1	-0.00932	-5.5	0.0921	inactive
68	CG31115 (GeneID 318597)	1	0.354	-0.119	0.722	inactive
69	CG31115 (GeneID 318597)	2	-0.572	-0.746	0.276	inactive
